Measurements reported in PubChem BioAssay AID624099 (ICCB-Longwood, 2012)
Here is an unselected part of about 21,000 reagents. Over the whole deposit, 497 (2.4%) were called active. 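Higher z means weaker E2 silencing; only reporter increases were scored, and knock-downs that hurt cell survival may mask genuine repressor factors.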 A number with no mark means an inactive call.

- Purpose: 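Knock-downs relieving repression by E2 of an HPV18 LCR luciferase reporter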 (primary screen)
- System: human C33A cervical carcinoma cells (HPV-negative) stably expressing BPV1 E2 and an HPV18 LCR luciferase reporter
- Reagents: siRNA pool against human genes, 40 nM
- Timing: 72 h
- Measured: 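HPV18 LCR reporter light per well, converted to plate-wise z-scores that exclude control wells, and averaged over triplicate plates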
- Reading the numbers: mean z-score and z-score: higher = stronger reporter signal, weaker E2 silencing
- Rule for the call: 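Mean z ≥ 2 together with z ≥ 2 in two or more of the three replicates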

no.	target	mean z-score	z-score, replicate A	z-score, replicate B	z-score, replicate C
1	CELF2	0.44	-0.07	0.69	0.69
2	CSNK1A1	1.31	1.17	1.35	1.42
3	STC1	0.44	0.61	0.3	0.4
4	CTSO	-0.83	-1.21	-0.38	-0.89
5	NADK2	-0.42	-0.08	-0.48	-0.7
6	MCAM	0.55	0.79	0.65	0.22
7	CCDC89	1.02	1.04	1.11	0.9
8	ANAPC5	0.19	-0.06	0.19	0.44
9	SMAP1	1.2	1.66	1.2	0.75
10	E4F1	-2.19	-2.19	-2.09	-2.29
11	LOC389095 (retired record)	-1.27	-1.32	-0.97	-1.51
12	CKLF	-0.26	-0.3	-0.14	-0.33
13	OR4A47	-0.36	-0.69	-0.27	-0.1

A few values from above.
Entry for NADK2 under “z-score, replicate A”: -0.08
CTSO, mean z-score → -0.83
Under “z-score, replicate A”, SMAP1 has 1.66
ANAPC5, z-score, replicate B → 0.19

Continued:
no.	target	mean z-score	z-score, replicate A	z-score, replicate B	z-score, replicate C
14	CLTRN	2.4 (active)	2.54	2.12	2.55
15	FAM107A	0.56	0.47	0.5	0.72
16	MAP10	-0.33	-0.75	-0.39	0.15
17	PTMS	-0.54	-0.66	-0.39	-0.57
18	TIMELESS	0.29	0.45	0.39	0.02
19	HPF1	0.91	1.19	1.41	0.13
20	SMIM12	0.74	0.4	1.15	0.67
21	CLEC12A-AS1	0.05	0.14	-0.13	0.16
22	EIF3L	1.87	2.42	1.44	1.74
23	LOC389689 (retired record)	0.1	0.06	-0.11	0.35
